PubChem BioAssay AID1259414 | Drosophila RNAi Screening Center | 2018
Assay: 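Fly genes that alter Wolbachia amount inside host cells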 (primary screen). Cell system: Drosophila JW18 cells infected with Wolbachia. Reagent: long dsRNA against Drosophila genes, 0.25 µg dsRNA per well of a 384-well plate. Timing: 5 days. Conditions: cells persistently infected with Wolbachia before knock-down; no added drug. Detection: 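Automated imaging of bacterial rRNA staining divided by host cell count, reported as plate-normalised robust z-score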. Direction: Wolbachia per cell robust z: higher = more Wolbachia per host cell than the plate typical. Active means: 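Active if absolute robust z reaches 1.5 in two or more of three replicates, leaving out multi- or no-target dsRNAs, genes unexpressed in JW18 and A1 wells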.
The screen tested about 24,000 reagents; shown is a random part of those that have a named target and a result. In the full data, about 1,210 (5%) got an active call. 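Inactive calls also include excluded dsRNAs with several or no targets, genes unexpressed in JW18, and well A1, regardless of score.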 A number with no mark means an inactive call. Names joined by + are all predicted targets of the reagent.

How did the screen score CaMKI [SID104196954]?
Wolbachia per cell robust z, rep 1: 0.182; Wolbachia per cell robust z, rep 2: -0.695; Wolbachia per cell robust z, rep 3: -7.6

With Mob3 [SID104182583], what was measured?
Wolbachia per cell robust z, rep 1: -3.2 (active); Wolbachia per cell robust z, rep 2: -6.19; Wolbachia per cell robust z, rep 3: 0.764

With Vha36-2 [SID104186086], what was measured?
Wolbachia per cell robust z, rep 1: -0.336; Wolbachia per cell robust z, rep 2: 0.614; Wolbachia per cell robust z, rep 3: -0.00233

Which result is listed for Vha36-2 [SID104207782]?
Wolbachia per cell robust z, rep 1: 0.233; Wolbachia per cell robust z, rep 2: 0.444; Wolbachia per cell robust z, rep 3: -1.08

With CG14627 [SID104198422], how do the results read?
Wolbachia per cell robust z, rep 1: -2.17; Wolbachia per cell robust z, rep 2: -0.682; Wolbachia per cell robust z, rep 3: 0.3

Which result is listed for anne [SID104196895]?
Wolbachia per cell robust z, rep 1: 0.643; Wolbachia per cell robust z, rep 2: 0.252; Wolbachia per cell robust z, rep 3: 0.762

Which result is listed for anne [SID104208496]?
Wolbachia per cell robust z, rep 1: -0.397; Wolbachia per cell robust z, rep 2: -0.104; Wolbachia per cell robust z, rep 3: 0.772

How did the screen score anne [SID104218426]?
Wolbachia per cell robust z, rep 1: -0.306; Wolbachia per cell robust z, rep 2: -0.464; Wolbachia per cell robust z, rep 3: -0.518

With BomS5 [SID104201815], what does the deposit list?
Wolbachia per cell robust z, rep 1: 0.368; Wolbachia per cell robust z, rep 2: 0.407; Wolbachia per cell robust z, rep 3: 0.505

With Obp83a [SID104192154], how do the results read?
Wolbachia per cell robust z, rep 1: -0.392; Wolbachia per cell robust z, rep 2: -0.355; Wolbachia per cell robust z, rep 3: -2.15

What is on record for Obp83a [SID104218399]?
Wolbachia per cell robust z, rep 1: -1.12; Wolbachia per cell robust z, rep 2: 0.386; Wolbachia per cell robust z, rep 3: -0.295

For Akap200 [SID104181656], how do the results read?
Wolbachia per cell robust z, rep 1: 1.06 (active); Wolbachia per cell robust z, rep 2: -4.51; Wolbachia per cell robust z, rep 3: -1.57

For Akap200 [SID104218185], what does the deposit list?
Wolbachia per cell robust z, rep 1: 0.0811; Wolbachia per cell robust z, rep 2: -2.11; Wolbachia per cell robust z, rep 3: -1.26

For Akap200 [SID104218441], what does the deposit list?
Wolbachia per cell robust z, rep 1: -0.698; Wolbachia per cell robust z, rep 2: 1.43; Wolbachia per cell robust z, rep 3: 0.535

Which result is listed for Chrac-16 [SID104200135]?
Wolbachia per cell robust z, rep 1: 1.23; Wolbachia per cell robust z, rep 2: 1.11; Wolbachia per cell robust z, rep 3: 1.9

For Chrac-16 [SID104202801], what does the deposit list?
Wolbachia per cell robust z, rep 1: -3.19 (active); Wolbachia per cell robust z, rep 2: -7.6; Wolbachia per cell robust z, rep 3: -2.12

What is on record for CG10764 [SID104185792]?
Wolbachia per cell robust z, rep 1: -1.34; Wolbachia per cell robust z, rep 2: -0.675; Wolbachia per cell robust z, rep 3: -1.69

How did the screen score UQCR-C1 [SID104195300]?
Wolbachia per cell robust z, rep 1: 0.806 (active); Wolbachia per cell robust z, rep 2: 1.71; Wolbachia per cell robust z, rep 3: 2.72

For snRNA:U1:21D [SID104215477], what does the deposit list?
Wolbachia per cell robust z, rep 1: 1.54; Wolbachia per cell robust z, rep 2: -0.272; Wolbachia per cell robust z, rep 3: 0.314

What did the screen give for Acyp2 [SID104195128]?
Wolbachia per cell robust z, rep 1: -0.0805; Wolbachia per cell robust z, rep 2: 0.14; Wolbachia per cell robust z, rep 3: 0.629

For Acyp2 [SID104218966], what does the deposit list?
Wolbachia per cell robust z, rep 1: -0.329; Wolbachia per cell robust z, rep 2: -1.44; Wolbachia per cell robust z, rep 3: -0.68

What is on record for CG31100 [SID104194245]?
Wolbachia per cell robust z, rep 1: -0.917; Wolbachia per cell robust z, rep 2: 1.02; Wolbachia per cell robust z, rep 3: 1.27

For CG31100 [SID104194247], how do the results read?
Wolbachia per cell robust z, rep 1: -0.056; Wolbachia per cell robust z, rep 2: 0.0263; Wolbachia per cell robust z, rep 3: -4.18

What is on record for CG31370 [SID104201194]?
Wolbachia per cell robust z, rep 1: 0.695; Wolbachia per cell robust z, rep 2: 0.489; Wolbachia per cell robust z, rep 3: -1.3

For Tret1-2 [SID104186909], what does the deposit list?
Wolbachia per cell robust z, rep 1: 0.42; Wolbachia per cell robust z, rep 2: 0.75; Wolbachia per cell robust z, rep 3: 0.334

With Tret1-2 [SID104207529], how do the results read?
Wolbachia per cell robust z, rep 1: 0.0234; Wolbachia per cell robust z, rep 2: -0.552; Wolbachia per cell robust z, rep 3: 0.649

With Tep3 [SID104183244], how do the results read?
Wolbachia per cell robust z, rep 1: 0.272; Wolbachia per cell robust z, rep 2: 0.789; Wolbachia per cell robust z, rep 3: -0.161

What did the screen give for CG11007 [SID104185815]?
Wolbachia per cell robust z, rep 1: 0.217; Wolbachia per cell robust z, rep 2: 0.231; Wolbachia per cell robust z, rep 3: 0.175

With CG44247 + veg (retired record) [SID104187506], how do the results read?
Wolbachia per cell robust z, rep 1: -1.95; Wolbachia per cell robust z, rep 2: -0.274; Wolbachia per cell robust z, rep 3: 0.495

Which result is listed for PIG-O [SID104185915]?
Wolbachia per cell robust z, rep 1: -0.628; Wolbachia per cell robust z, rep 2: -1.11; Wolbachia per cell robust z, rep 3: -0.31

Reprinted from above (5 entries):
anne [SID104196895] — Wolbachia per cell robust z, rep 1: 0.643; Wolbachia per cell robust z, rep 2: 0.252; Wolbachia per cell robust z, rep 3: 0.762
anne [SID104208496] — Wolbachia per cell robust z, rep 1: -0.397; Wolbachia per cell robust z, rep 2: -0.104; Wolbachia per cell robust z, rep 3: 0.772
anne [SID104218426] — Wolbachia per cell robust z, rep 1: -0.306; Wolbachia per cell robust z, rep 2: -0.464; Wolbachia per cell robust z, rep 3: -0.518
BomS5 [SID104201815] — Wolbachia per cell robust z, rep 1: 0.368; Wolbachia per cell robust z, rep 2: 0.407; Wolbachia per cell robust z, rep 3: 0.505
Obp83a [SID104192154] — Wolbachia per cell robust z, rep 1: -0.392; Wolbachia per cell robust z, rep 2: -0.355; Wolbachia per cell robust z, rep 3: -2.15
